A mixed list of measured activities; the numbers were collected in NIAID ChemDB.

Common to all: growth or infection tests; agent: Mycobacterium avium complex; endpoint: MIC

Conditions beyond the fields shown may differ between rows. a–b is a range or a potency band.

SMILES | strain or isolate | result
CC[C@H]1OC(=O)[C@H](C)[C@@H](OC2C[C@@](C)(OC)[C@@H](O)[C@H](C)O2)[C@H](C)[C@@H](O[C@@H]2O[C@H](C)C[C@H](N(C)C)[C@H]2O)C(C)(O)C[C@@H](C)/C(=N\OCCCCc2ccccc2)[C@H](C)[C@@H](O)[C@]1(C)O | 20096 | 3.13 µg/mL
O=C1c2ccccc2-n2c1nc1ncccc1c2=O | 101 | 5 µg/mL
COc1ccc(CSc2cc(C(N)=S)ccn2)cc1 | MY330/88 | 62 µM
O=c1c2ccccc2sn1CCO | AN2 | >32 µg/mL
CCCCO/N=C1\[C@H](C)CC(C)(O)[C@H](O[C@@H]2O[C@H](C)C[C@H](N(C)C)[C@H]2O)[C@@H](C)[C@H](O[C@H]2C[C@@](C)(OC)[C@@H](OC(C)=O)[C@H](C)O2)[C@@H](C)C(=O)O[C@H](CC)[C@@](C)(O)[C@H](O)[C@H]1C | 20096 (clarithromycin-resistant) | >50 µg/mL
CCCCCCCCCCCCCCO/N=C1\[C@H](C)CC(C)(O)[C@H](O[C@@H]2O[C@H](C)C[C@H](N(C)C)[C@H]2O)[C@@H](C)[C@H](OC2C[C@@](C)(OC)[C@@H](O)[C@H](C)O2)[C@@H](C)C(=O)O[C@H](CC)[C@@](C)(O)[C@H](O)[C@H]1C | 20039 | 50 µg/mL
COc1ccc(Sc2ncccn2)cc1 | NJ211 | >12.8 µg/mL
CC[C@H]1OC(=O)[C@H](C)[C@@H](OC2C[C@@](C)(OC)[C@@H](OC(=O)Cc3ccccc3)[C@H](C)O2)[C@H](C)[C@@H](O[C@@H]2O[C@H](C)C[C@H](N(C)C)[C@H]2O)C(C)(O)C[C@@H](C)/C(=N\OCCCOc2ccccc2)[C@H](C)[C@@H](O)[C@]1(C)O | 20096 (clarithromycin-resistant) | 3.13 µg/mL
CCCCCCCCc1ccc2c(c1)C(=O)c1nc3ccncc3c(=O)n1-2 | 19075 | 0.06 µg/mL
COc1ccc(Sc2ncnc3nc[nH]c23)c(OC)c1 | NJ211 | >12.8 µg/mL
CC[C@H]1OC(=O)[C@H](C)[C@@H](OC(C)=O)[C@H](C)[C@@H](O[C@@H]2O[C@H](C)C[C@H](N(C)C)[C@H]2O)C(C)(O)C[C@@H](C)/C(=N\OCCCOc2ccccc2)[C@H](C)[C@@H](O)[C@]1(C)O | 20096 (clarithromycin-resistant) | 25 µg/mL
NNC(=O)c1ccncc1 | 11005 | 20–25 µg/mL
N#Cc1ccnc(SCc2ccc(F)cc2)c1 | MY330/88 | 250 µM
CCc1nc(N)nc(N)c1-c1ccc(Cl)cc1 | 3404-4 | 32 µg/mL
CC[C@H]1OC(=O)[C@H](C)[C@@H](OC2C[C@@](C)(OC)[C@@H](O)[C@H](C)O2)[C@H](C)[C@@H](O[C@@H]2O[C@H](C)C[C@H](N(C)C)[C@H]2O)C(C)(O)C[C@@H](C)/C(=N\OCCc2ccccc2)[C@H](C)[C@@H](O)[C@]1(C)O | 20092 | >50 µg/mL
CCCCNC(=O)OCCn1sc2ccccc2c1=O | AN2 | >32 µg/mL
NNC(=O)c1ccncc1 | N-316 (HIV-) | 2 µg/mL
O=C1c2cc(Cl)ccc2-n2c1nc1cc(N3CCOCC3)ccc1c2=O | 19075 | >25 µg/mL
CC[C@H]1OC(=O)[C@H](C)[C@@H](O[C@H]2C[C@@](C)(OC)[C@@H](O)[C@H](C)O2)[C@H](C)[C@@H](O[C@@H]2O[C@H](C)C[C@H](N(C)C)[C@H]2O)[C@](C)(O)C[C@@H](C)CN(C)[C@H](C)[C@@H](O)[C@]1(C)O | G | 8 µg/mL
Cc1cccc(C)c1Sc1nc(Cl)nc2nc[nH]c12 | NJ211 | >12.8 µg/mL
CC[C@H]1OC(=O)[C@H](C)[C@@H](O[C@H]2C[C@@](C)(OC)[C@@H](O)[C@H](C)O2)[C@H](C)[C@@H](O[C@@H]2O[C@H](C)C[C@H](N(C)C)[C@H]2O)[C@](C)(OC)C[C@@H](C)C(=O)[C@H](C)[C@@H](O)[C@]1(C)O | 20096 | >50 µg/mL
CC1(C)S[C@@H]2[C@H](NC(=O)C(C(=O)O)c3ccccc3)C(=O)N2[C@H]1C(=O)O | CIPT 140310006 | 25 µg/mL
NC(=S)c1ccnc(SCc2ccc(Cl)cc2)c1 | MY330/88 | 16 µM
CC(C)(C)NC(=O)OCCn1sc2ccccc2c1=S | ISS 486 | 4 µg/mL
NC[C@H]1O[C@H](O[C@H]2[C@H](O)[C@@H](O[C@H]3O[C@H](CO)[C@@H](O)[C@H](N)[C@H]3O)[C@H](N)C[C@@H]2N)[C@H](O)[C@@H](O)[C@@H]1O | CIPT 140310005 | 5 µg/mL
CO[C@H]1/C=C/O[C@@]2(C)Oc3c(C)c(O)c4c(=O)c(c5oc6cc(N7CCN(CC(C)C)CC7)cc(=O)c6nc5c4c3=C2O)NC(=O)/C(C)=C\C=C\[C@H](C)[C@H](O)[C@@H](C)[C@@H](O)[C@@H](C)[C@H](OC(C)=O)[C@@H]1C | N-951 (HIV+) | 0.05 µg/mL
NC(=S)c1ccnc(SCc2ccc([N+](=O)[O-])cc2)c1 | MY330/88 | 31 µM
O=C1c2ccc(N3CCNCC3)cc2-n2c1nc1ccccc1c2=O | 19075 | >25 µg/mL
Cc1ccc(CSc2cc(C(N)=S)ccn2)cc1 | MY330/88 | 31 µM
O=C1c2cc(F)ccc2-n2c1nc1ncccc1c2=O | 19075 | 5 µg/mL
CC[C@H]1OC(=O)[C@H](C)[C@@H](OC2C[C@@](C)(OC)[C@@H](OC(=O)CCCc3ccccc3)[C@H](C)O2)[C@H](C)[C@@H](O[C@@H]2O[C@H](C)C[C@H](N(C)C)[C@H]2O)C(C)(O)C[C@@H](C)/C(=N\OCCCOc2ccccc2)[C@H](C)[C@@H](O)[C@]1(C)O | 20039 (clarithromycin-susceptible) | 0.78 µg/mL
O[C@H](c1cc(C(F)(F)F)nc2c(C(F)(F)F)cccc12)[C@H]1CCCCN1 | 5 clinical isolates | >16 µg/mL
CO[C@H]1/C=C/O[C@@]2(C)Oc3c(C)c(O)c4c(O)c(c5c(c4c3C2=O)NC2(CCN(CC(C)C)CC2)N=5)=NC(=O)/C(C)=C\C=C\[C@H](C)[C@H](O)[C@@H](C)[C@@H](O)[C@@H](C)[C@H](OC(C)=O)[C@@H]1C | N-976 (HIV+) | 0.8 µg/mL
NC(=S)c1ccnc(SCc2ccc(Br)cc2)c1 | MY330/88 | 31 µM
CC(C)(C)NC(=O)OCCn1sc2ccccc2c1=O | AN2 | >32 µg/mL
CC[C@H]1OC(=O)[C@H](C)[C@@H](OC2C[C@@](C)(OC)[C@@H](O)[C@H](C)O2)[C@H](C)[C@@H](O[C@@H]2O[C@H](C)C[C@H](N(C)C)[C@H]2O)C(C)(O)C[C@@H](C)/C(=N\OCCCCOc2ccccc2)[C@H](C)[C@@H](O)[C@]1(C)O | 20092 | 12.5 µg/mL
CC[C@H]1OC(=O)[C@H](C)[C@@H](O[C@H]2C[C@@](C)(OC)[C@@H](O)[C@H](C)O2)[C@H](C)[C@@H](O[C@@H]2O[C@H](C)C[C@H](N(C)C)[C@H]2O)[C@](C)(OC)C[C@@H](C)C(=O)[C@H](C)[C@@H](O)[C@]1(C)O | N-92159 | 0.5 µg/mL
N#Cc1ccnc(SCc2c(F)cccc2Cl)c1 | MY330/88 | >500 µM
C[C@@H](O)[C@H]1C(=O)N2C(C(=O)O)=C(SCCN=CN)C[C@H]12 | CIPT 140310003 (smooth) | 10 µg/mL
CC[C@H]1OC(=O)[C@H](C)[C@@H](O[C@H]2C[C@@](C)(OC)[C@@H](O)[C@H](C)O2)[C@H](C)[C@@H](O[C@@H]2O[C@H](C)C[C@H](N(C)C)[C@H]2O)[C@](C)(OC)C[C@@H](C)C(=O)[C@H](C)[C@@H](O)[C@]1(C)O | Isolate 90-0791 | 3 µg/mL
CO[C@H]1/C=C/O[C@@]2(C)Oc3c(C)c(O)c4c(O)c(c5c(c4c3C2=O)NC2(CCN(CC(C)C)CC2)N=5)=NC(=O)/C(C)=C\C=C\[C@H](C)[C@H](O)[C@@H](C)[C@@H](O)[C@@H](C)[C@H](OC(C)=O)[C@@H]1C | K | 2 µg/mL
O[C@@H](c1cc2ccc(C(F)(F)F)cc2c2cc(C(F)(F)F)ccc12)[C@H]1CCCCN1 | 101 (clarithromycin-resistant) | 4 µg/mL
CC[C@H]1OC(=O)[C@H](C)[C@@H](O[C@H]2C[C@@](C)(OC)[C@@H](O)[C@H](C)O2)[C@H](C)[C@@H](O[C@@H]2O[C@H](C)C[C@H](N(C)C)[C@H]2O)[C@](C)(OC)C[C@@H](C)C(=O)[C@H](C)[C@@H](O)[C@]1(C)O | LA-1 | 4 µg/mL
COc1cc([N+](=O)[O-])c2nccc(C=O)c2c1F | 5 clinical isolates | >16 µg/mL
COc1ccc(OC)c(Sc2ncnc3nc[nH]c23)c1 | NJ211 | >12.8 µg/mL
C[C@@H]1CN(c2c(F)c(N)c3c(=O)c(C(=O)O)cn(C4CC4)c3c2F)C[C@H](C)N1 | CIPT 140310030 | 1.5 µg/mL
O[C@H](c1cc2ccc(C(F)(F)F)cc2c2cc(C(F)(F)F)ccc12)[C@H]1CCCCN1 | 5 clinical isolates | 4–8 µg/mL
CC1(C)N=C(N)N=C(N)N1OCCCOc1cc(Cl)c(Cl)cc1Cl | 3008 | 1 µg/mL
CC[C@H]1OC(=O)[C@H](C)[C@@H](OC2C[C@@](C)(OC)[C@@H](O)[C@H](C)O2)[C@H](C)[C@@H](O[C@@H]2O[C@H](C)C[C@H](N(C)C)[C@H]2O)C(C)(O)C[C@@H](C)/C(=N\OCCCc2ccccc2)[C@H](C)[C@@H](O)[C@]1(C)O | 20096 | 12.5 µg/mL
CCNC(=O)[C@@H](NC(=O)Cc1ccccc1)[C@@H]1N[C@@H](C(=O)NCCNC(=O)[C@@H]2N[C@@H]([C@H](NC(=O)Cc3ccccc3)C(=O)NCC)SC2(C)C)C(C)(C)S1 | CIPT 140310005 | 25 µg/mL
N#Cc1ccnc(SCc2cccc(F)c2)c1 | MY330/88 | 250 µM
C[C@@H]1CN(c2c(F)c(N)c3c(=O)c(C(=O)O)cn(C4CC4)c3c2F)C[C@H](C)N1 | N-314 (HIV-) | 0.5 µg/mL
Cc1ccccc1CSc1ncnc2nc[nH]c12 | NJ211 | >12.8 µg/mL
CC1(C)N=C(N)N=C(N)N1OCCCOc1cc(Cl)c(Cl)cc1Cl | DW20 | 1 µg/mL
OCCn1sc2ccccc2c1=S | AN3 | 2 µg/mL
O=C1c2cc(F)ccc2-n2c1nc1c(F)cccc1c2=O | 19075 | 1 µg/mL

Repeating the first 7 entries:

SMILES,strain or isolate,result
CC[C@H]1OC(=O)[C@H](C)[C@@H](OC2C[C@@](C)(OC)[C@@H](O)[C@H](C)O2)[C@H](C)[C@@H](O[C@@H]2O[C@H](C)C[C@H](N(C)C)[C@H]2O)C(C)(O)C[C@@H](C)/C(=N\OCCCCc2ccccc2)[C@H](C)[C@@H](O)[C@]1(C)O,20096,3.13 µg/mL
O=C1c2ccccc2-n2c1nc1ncccc1c2=O,101,5 µg/mL
COc1ccc(CSc2cc(C(N)=S)ccn2)cc1,MY330/88,62 µM
O=c1c2ccccc2sn1CCO,AN2,>32 µg/mL
CCCCO/N=C1\[C@H](C)CC(C)(O)[C@H](O[C@@H]2O[C@H](C)C[C@H](N(C)C)[C@H]2O)[C@@H](C)[C@H](O[C@H]2C[C@@](C)(OC)[C@@H](OC(C)=O)[C@H](C)O2)[C@@H](C)C(=O)O[C@H](CC)[C@@](C)(O)[C@H](O)[C@H]1C,20096 (clarithromycin-resistant),>50 µg/mL
CCCCCCCCCCCCCCO/N=C1\[C@H](C)CC(C)(O)[C@H](O[C@@H]2O[C@H](C)C[C@H](N(C)C)[C@H]2O)[C@@H](C)[C@H](OC2C[C@@](C)(OC)[C@@H](O)[C@H](C)O2)[C@@H](C)C(=O)O[C@H](CC)[C@@](C)(O)[C@H](O)[C@H]1C,20039,50 µg/mL
COc1ccc(Sc2ncccn2)cc1,NJ211,>12.8 µg/mL